Source: publication PMC12754631, “Cis‐2‐decenoic acid modulates Pseudomonas aeruginosa virulence through a noncanonical transcriptional regulator” (mLife, 2025)

Legend:
[1] = biological target: T1, FadD1 (Pseudomonas aeruginosa PAO1) (UniProt Q9HYU4); assay: EMSA; conditions: recombinant protein, residues 1-562, protein details: His (Ni-NTA, TEV removal described), label: 3' biotin, probe letters rebuilt from the primers and the genome
T1 sequence: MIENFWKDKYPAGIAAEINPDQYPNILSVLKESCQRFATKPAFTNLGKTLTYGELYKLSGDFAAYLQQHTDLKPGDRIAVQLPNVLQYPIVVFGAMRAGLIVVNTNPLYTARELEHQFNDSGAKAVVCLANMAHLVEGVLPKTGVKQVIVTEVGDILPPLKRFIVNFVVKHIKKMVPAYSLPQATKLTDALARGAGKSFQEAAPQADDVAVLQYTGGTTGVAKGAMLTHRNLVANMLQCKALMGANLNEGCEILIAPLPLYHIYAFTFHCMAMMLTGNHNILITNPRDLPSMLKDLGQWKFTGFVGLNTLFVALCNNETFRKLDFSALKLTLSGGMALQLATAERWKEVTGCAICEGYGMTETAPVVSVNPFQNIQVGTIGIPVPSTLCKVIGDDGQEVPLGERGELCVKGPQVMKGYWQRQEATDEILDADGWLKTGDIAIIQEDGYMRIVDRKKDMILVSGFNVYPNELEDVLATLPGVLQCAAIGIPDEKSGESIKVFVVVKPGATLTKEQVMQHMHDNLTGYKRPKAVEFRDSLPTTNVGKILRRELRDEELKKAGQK

[2] = biological target: FadD1 AMP-B domain (Pseudomonas aeruginosa PAO1) (UniProt Q9HYU4); assay: EMSA; conditions: recombinant protein; residues 1-470; protein details: His; label: 3' biotin; probe letters rebuilt from the primers and the genome

| Sequence | binding result ([1]; 20 uM BDSF (enhances binding)) | binding result ([1]; cis-DA (enhances binding)) | binding result [1] | binding result [2] |
| --- | --- | --- | --- | --- |
| CTGGGTATTCAGTTCGCATAAAATGTGATCTAGATCACATTTAAACGTTTGCTTACCCTCTAGGACGGGTATCGTACTAGGTGCATCAAACGCTGCGGTCTATTGTTAAGTGGGACTGAAATGTGCCTTTCCGGCACAACGCCAACTCTATAGAGTGGGCTGACTGGACATCTTCAGGGGTCGTCGGGCACGGGCGCATGCGCCTCGGCAGGAAGCCGGGATTCTCGGACTGCCGTACAACGTGCCGGATATCGGGTGCCGAATCCATATTTGGCTGATTGGTTAATAGTTTAAGAAGAACGTAGCGCTATGGCCTTGGTTGACGGTTTTCTTGAGCTG (double strand) [lasR promoter] | binds | binds | binds | binds |
| AGAAGCTGCGCCGACCGGTGGTCAACGACCAGGTGCTGGCGCCGGTCTTCCTCGAGCAGGCCGAGGCCGTGCGCAAGGGCGACCAGGTGGTGATCCTCGCACGCACTGCCACCATCAACGTCAAGATGCCCGGCGAGGCGCTGTCCGATGGCGCCCCGGGCCAGCAGATCCGCGTGCGCAACCTGCGCTCGCAGCGGATAATCAAGGCCCGCGTGATAGAACCCGGCACGGTCGAGGTGAATATGTAGAGGGAAAGCCGTGGCCGGTAGCGCTGGCGCTACCCCGGCGGGTTTCTCTAAACTGGGAAACGACGCACGAAAATAAGTCCTAAAGTTTTTCAAGCCTTCGCCGAAAAGCTAGGCAAGCGTCCAATACCTTCGAGGTTTACAACCATGGTCATCGACTTCAACCGGCTGAAT (double strand) [flgM promoter] | – | – | binds | – |
| CGTAGAAGCTGCCGAATAAGGCATCTGCTGCACAAGAAACCGGGCCCAGGCCCGGTTTTTTTATTACCTGCCTTAAAGTTTTTATCTATCGGCTCGCTTTCTTTAATAAATTGGATTGTAGGAGGGCTGTCATTCATCCTTAACCTGCTTTTACGAAAAGCTACGTTCGGATAAGCGAGATCAATGCAAAGGGCGCTTGGTTCAGCCGACAGGTTGTCTTCCGCCAATCCCTGGTCCACGCTGATGATTTCCGTGTAGCCGCTTCGCTTCATAGCACGTTAGCCGTTGAGGAGAGAGTAAATGGAAGAGAAGACCCGCCTGACCACTGCC (double strand) [katA promoter] | – | – | binds | – |
